A mixed list of measured activities; the numbers were collected in NIAID ChemDB.

Shared fields: tests on isolated targets; organism: HIV-1; target: Reverse transcriptase

Two numbers with a dash give a range or band. ICn is the concentration giving n% inhibition. Blank or dashed fields: not listed here. Rows are shuffled and stem from different studies.

SMILES	strain or isolate	method	read-out	changes	value
CCN1c2ncc(CCOc3ccc4c(c3)COC(=O)N4)cc2C(=O)N(C)c2cccnc21	IIIB	nucleotide incorporation / radiometric	IC50		<0.05 µM
CC(C)(C#Cc1ccc(NC(=O)CSc2nnnn2-c2cc(C(C)(C)C)ccc2Cl)c(Cl)c1)NC(=O)CN1CCC(C(=O)O)CC1		PicoGreen / fluorescence	IC50	RT-K103 Y181C	<1 µM
Cc1occc1C(=S)Nc1ccc(Cl)c(/C=N/OC(C)(C)C)c1		nucleotide incorporation / radiometric	IC50	RT-V106A	39 µM
CC(C)(C)c1ccc(-n2nnnc2SCC(=O)Nc2ccc(-c3ccc(/C=C/C(=O)O)cc3)cc2Cl)c(Cl)c1		PicoGreen / fluorescence	IC50	RT-K103 Y181C	<1 µM
CCN1c2ncc(CCOc3ccc(C(=O)O)c4ccccc34)cc2-c2ncc(C)n2-c2cccnc21		nucleotide incorporation / radiometric	IC50	RT-K103N Y181C	>0.1 µM
CC(C)(C#Cc1ccc(NC(=O)CSc2nnnn2-c2ccc(C3CC3)cc2Cl)c(Cl)c1)OCCOc1ccncc1	WT	PicoGreen / fluorescence	IC50		<1 µM
CCN1c2ncc(CCc3cccc4[nH]ccc34)cc2C(=O)N(C)c2ccc(Cl)nc21	WT	nucleotide incorporation / radiometric	IC50		<1 µM
CC(C)(C)Nc1cccnc1N1CCN(C(=O)c2cc3cc(F)ccc3[nH]2)CC1		nucleotide incorporation	IC50		<100 µM
O=C(c1cc2ccccc2[nH]1)N1CCN(c2ncccc2NCc2ccccc2)CC1		nucleotide incorporation	IC50		>100 µM
CS(=O)(=O)Nc1ccc2c(c1)CN(c1nn3c(C4CC4)nnc3c3ccccc13)CC2	98US_MSC5016	RT activity / fluorescence	IC90		2.08 µM
COc1ccc2cc(C(=O)N3CCN(c4ncccc4NC(C)C)CC3)[nH]c2c1		nucleotide incorporation	IC50		<100 µM
Nc1cccnc1N1CCN(C(=O)c2cc3ccccc3[nH]2)CC1		nucleotide incorporation	IC50		>100 µM
CCN1c2ncc(CCOc3cccc4c3CNC(=O)N4C)cc2C(=O)N(C)c2cccnc21	IIIB	nucleotide incorporation / radiometric	IC50		<0.05 µM
Cc1nnc2c3ccccc3c(N3CCC4CCCCC4C3)nn12	98US_MSC5016	RT activity / fluorescence	IC50		2.63 µM
CCN1c2ncc(CCOc3cccc4c3CNS4(=O)=O)cc2-c2ncc(C)n2-c2cccnc21		nucleotide incorporation / radiometric	IC50	RT-K103N Y181C	<0.05 µM
Cc1occc1C(=S)Nc1ccc(Cl)c(C(=O)OCC2CC2)c1		nucleotide incorporation / radiometric	IC50	RT-V106A	>50 µM
CC(C)(C#Cc1ccc(NC(=O)CSc2nnnn2-c2ccc(C(C)(C)C)cc2Cl)c(Cl)c1)CO		PicoGreen / fluorescence	IC50	RT-K103 Y181C	<1 µM
CCN1c2ncc(CCOc3cccc4c3CCNC4=O)cc2C(=O)Nc2c(C)ccnc21	IIIB	nucleotide incorporation / radiometric	IC50	RT-K103N Y181C	>0.1 µM
CCN1c2ncc(CCc3ccncc3)cc2C(=O)N(C)c2ccc(=O)[nH]c21	WT	nucleotide incorporation / radiometric	IC50		>1 µM
Cc1ccc2[nH]c(C(=O)N3CCN(c4ncccc4NC(C)C)CC3)cc2c1		nucleotide incorporation	IC50		<100 µM
CNc1cccnc1N1CCN(C(=O)c2cc3cc(OC)ccc3[nH]2)CC1		nucleotide incorporation	IC50		<100 µM
CN(C)c1ccc(Cl)c(-n2nnnc2SCC(=O)Nc2ccc(C#CC(C)(C)C(=O)O)cc2Cl)c1	WT	PicoGreen / fluorescence	IC50		<1 µM
CCN1c2ncc(CCOc3ccc(CC(=O)O)c4ccccc34)cc2C(=O)N(C)c2ccc(Cl)nc21		nucleotide incorporation / radiometric	IC50	RT-V106A	>1 µM
CCN1c2ncc(CCOc3ccc(C(=O)O)cc3C)cc2-c2ncc(C)n2-c2cccnc21		nucleotide incorporation / radiometric	IC50		<0.05 µM
Cc1ccc2[nH]c(C(=O)N3CCN(c4ncccc4NC(C)C)CC3)cc2c1		nucleotide incorporation	IC50		<100 µM
O=C(CSc1nnnn1-c1ccc(C2CC2)cc1Cl)Nc1ccc(C#CC2(CN3CCCC3)CC2)cc1Cl	WT	PicoGreen / fluorescence	IC50		<1 µM
Cc1c(Cc2ccccc2)nc(SCCCCO)[nH]c1=O			Ki	RT-L100I	73 µM
Nc1ccn([C@H]2CC[C@@H](COP(=O)(O)OP(=O)(O)OP(=O)(O)O)O2)c(=O)n1		nucleotide incorporation / radiometric	Ki	RT-Q151M	22 µM
Cc1cc(C#CC(C)(C)NC(=O)c2cc[n+]([O-])cc2)ccc1NC(=O)CSc1nnnn1-c1ccc(C2CC2)cc1Cl		PicoGreen / fluorescence	IC50	RT-K103 Y181C	<1 µM
CCN1c2ncc(CCOc3cccc4c3COC(=O)N4)cc2C(=O)N(C)c2cccnc21	IIIB	nucleotide incorporation / radiometric	IC50	RT-K103N Y181C	>0.1 µM
CC(C)(C#Cc1ccc(NC(=O)CSc2nnnn2-c2cc(Cl)ccc2Cl)c(Cl)c1)C(=O)O		PicoGreen / fluorescence	IC50	RT-K103 Y181C	<1 µM
CC(C)Nc1cccnc1N1CCCN(C(=O)c2cc3ccccc3[nH]2)CC1		nucleotide incorporation	IC50		<100 µM
CC(C)(C#Cc1ccc(NC(=O)CSc2nnnn2-c2ccc(C(C)(C)C)cc2Cl)c(Cl)c1)OCC(N)=O	WT	PicoGreen / fluorescence	IC50		<1 µM
FC(F)(F)Cc1nnc2c3ccccc3c(N3CCc4ccccc4C3)nn12	KER2008	RT activity / fluorescence	IC50		0.88 µM
CC(C)Nc1cnccc1N1CCN(C(=O)c2cc3cc(F)ccc3[nH]2)CC1		nucleotide incorporation	IC50		<100 µM
CCN1c2ncc(CCOc3ccc(C4CC4C(=O)O)c4ccccc34)cc2C(=O)N(C)c2ccc(F)nc21	WT	nucleotide incorporation / radiometric	IC50		<0.1 µM
CC(C)(C#Cc1ccc(NC(=O)CSc2nnnn2-c2cc(C(C)(C)C)cc(Br)c2Cl)c(Cl)c1)NC(=O)c1cc[n+]([O-])cc1		PicoGreen / fluorescence	IC50	RT-K103 Y181C	<1 µM
C=CCO/N=C/c1cc(NC(=S)c2ccoc2C)ccc1Cl		nucleotide incorporation / radiometric	IC50	RT-P236L	6 µM
CCN1c2ncc(CCOc3cccc4c3CN(C)C(=O)N4C)cc2C(=O)N(C)c2cccnc21	IIIB	nucleotide incorporation / radiometric	IC50	RT-K103N Y181C	>0.1 µM
CC(C)Nc1cccnc1N1CCN(C(=O)c2cc3cc(F)ccc3[nH]2)CC1		nucleotide incorporation	IC50		<100 µM
CC(C)(C)c1ccc(-n2nnnc2SCC(=O)Nc2ccc(NC(=O)Cc3cc[n+]([O-])cc3)cc2Cl)c(Cl)c1		PicoGreen / fluorescence	IC50	RT-K103 Y181C	<1 µM
CCN1c2ncc(CCc3ccncc3)cc2C(=O)Nc2c(C)ccnc21	WT	nucleotide incorporation / radiometric	IC50		<1 µM
CCOC(=O)N1c2cccc(OCCc3cnc4c(c3)-c3nccn3-c3c(C)ccnc3N4CC)c2CS1(=O)=O		nucleotide incorporation / radiometric	IC50	RT-K103N Y181C	<0.05 µM
CC(C)(C#Cc1ccc(NC(=O)CSc2nnnn2-c2ccc(C3CC3)cc2Cl)c(Cl)c1)OCCN1CCC1	WT	PicoGreen / fluorescence	IC50		<1 µM
CCN1c2ncc(CCOc3cccc4c3C(C)(C)OC(=O)N4)cc2C(=O)N(C)c2cccnc21	IIIB	nucleotide incorporation / radiometric	IC50	RT-K103N Y181C	>0.1 µM
Cc1ccc(-n2nncc2SCC(=O)Nc2ccc(-c3ccc(CC(=O)O)cc3)cc2Cl)c(Cl)c1	WT	PicoGreen / fluorescence	IC50		<1 µM
CC(C)(C)Nc1ccnnc1N1CCN(C(=O)c2cc3cc(OCc4ccccc4)ccc3[nH]2)CC1		nucleotide incorporation	IC50		<100 µM
CC(C)(C#Cc1ccc(NC(=O)CSc2nnnn2-c2cc(C(F)(F)F)ccc2Cl)c(Cl)c1)NC(=O)C1CC1	WT	PicoGreen / fluorescence	IC50		<1 µM
CC(C)Nc1cccnc1N(C)[C@H]1CCCC[C@@H]1N(C)C(=O)c1cc2ccccc2[nH]1		nucleotide incorporation	IC50		>100 µM
CCN1c2ncc(CCOc3cccc4c3CNC(=O)N4)cc2-c2nccn2-c2cccnc21		nucleotide incorporation / radiometric	IC50	RT-K103N Y181C	<0.05 µM
CC(C)(C)c1ccc(-n2nnnc2SCC(=O)Nc2ccc(C(=O)NCCO)cc2Cl)c(Cl)c1	WT	PicoGreen / fluorescence	IC50		<1 µM
CCN1c2ncc(CCOc3ccc(C(=O)O)c4c3CCN(C(=O)OC(C)(C)C)C4)cc2C(=O)N(C)c2cccnc21		nucleotide incorporation / radiometric	IC50	RT-Y188L	0.1–1 µM
CCN1c2nc(Cl)ccc2NC(=O)c2cc(CCc3cccc(NS(C)(=O)=O)c3)cnc21		nucleotide incorporation / radiometric	IC50	RT-Y181C	<1 µM
CCN1c2ncc(CCOc3cccc4c3CS(=O)(=O)N4CC(=O)O)cc2-c2nccn2-c2c(C)ccnc21		nucleotide incorporation / radiometric	IC50	RT-K103N Y181C	0.05–0.1 µM
CC(C)(C)c1ccc(-n2nnnc2SCC(=O)Nc2ccc(NC(=O)CCC(=O)O)cc2Cl)c(Cl)c1		PicoGreen / fluorescence	IC50	RT-K103 Y181C	<1 µM
Cc1cccc2[nH]c(C(=O)N3CCN(c4ncccc4NC(C)C)CC3)cc12		nucleotide incorporation	IC50		<100 µM
CCNc1cccnc1N1CCN(C(=O)c2cc3cc(CC)ccc3[nH]2)CC1		nucleotide incorporation	IC50		<100 µM
CC(C)(C)c1ccc(-n2nnnc2SCC(=O)Nc2ccc(C#CCCCOC(N)=O)cc2Cl)c(Cl)c1		PicoGreen / fluorescence	IC50	RT-K103 Y181C	<1 µM
O=c1cc(Cc2ccccc2)nc(SCCCCO)[nH]1			Ki		100 µM
CC(C)Nc1cccnc1OCCOC(=O)c1cc2ccccc2[nH]1		nucleotide incorporation	IC50		<100 µM
CCN1c2ncc(CCOc3cccc4c3CNC(=O)N4C)cc2C(=O)Nc2c(C)ccnc21	IIIB	nucleotide incorporation / radiometric	IC50		<0.05 µM
CCN1c2ncc(CCOc3ccc(CC(=O)O)c4ccccc34)cc2C(=O)Nc2c(C)ccnc21	WT	nucleotide incorporation / radiometric	IC50		<0.1 µM
CC(C)(C)c1ccc(-n2nnnc2SCC(=O)Nc2ccc(NC(=O)Nc3ccccc3)cc2Cl)c(Cl)c1	WT	PicoGreen / fluorescence	IC50		<1 µM
O=c1cc(Cc2ccccc2)nc(NCCCCO)[nH]1			Ki	RT-Y188L	>1000 µM
O=C(CSc1nnnn1-c1ccc(C2CC2)cc1Cl)Nc1ccc(C#CC(O)(C(F)(F)F)C(F)(F)F)cc1Cl	WT	PicoGreen / fluorescence	IC50		<1 µM
COc1ccc2c(c1)CCN(c1nn3c(C4CC4)nnc3c3ccccc13)C2	98US_MSC5016	RT activity / fluorescence	IC90		3.28 µM
CCc1cc(NCc2nc3c(C)ccc(C)c3o2)c(=O)[nH]c1C		nucleotide incorporation	IC50	RT-K103N Y188C	3.32 µM
C=C1c2cc(CCOc3ccc(NS(C)(=O)=O)c4ccccc34)cnc2N(CC)c2ncccc2N1C	WT	nucleotide incorporation / radiometric	IC50		<0.1 µM
CC(C)(C#Cc1ccc(NC(=O)CSc2nnnn2-c2cccc(C3CC3)c2Cl)c(Cl)c1)C(=O)O	WT	PicoGreen / fluorescence	IC50		<1 µM
CCN1c2ncc(CCOc3ccc(C(C)CC(=O)O)c4ccccc34)cc2C(=O)N(C)c2cccnc21		nucleotide incorporation / radiometric	IC50	RT-K103N Y181C	0.1–1 µM
Nc1nc2c(ncn2[C@H]2CC[C@@H](COP(=O)(O)OP(=O)(O)OP(=O)(O)O)O2)c(=O)[nH]1		nucleotide incorporation / radiometric	Ki	RT-A62V V75I F77L F116Y Q151M	0.052 µM

The last 6 rows once more:

{"SMILES": "COc1ccc2c(c1)CCN(c1nn3c(C4CC4)nnc3c3ccccc13)C2", "strain or isolate": "98US_MSC5016", "method": "RT activity / fluorescence", "read-out": "IC90", "value": "3.28 µM"}
{"SMILES": "CCc1cc(NCc2nc3c(C)ccc(C)c3o2)c(=O)[nH]c1C", "method": "nucleotide incorporation", "read-out": "IC50", "changes": "RT-K103N Y188C", "value": "3.32 µM"}
{"SMILES": "C=C1c2cc(CCOc3ccc(NS(C)(=O)=O)c4ccccc34)cnc2N(CC)c2ncccc2N1C", "strain or isolate": "WT", "method": "nucleotide incorporation / radiometric", "read-out": "IC50", "value": "<0.1 µM"}
{"SMILES": "CC(C)(C#Cc1ccc(NC(=O)CSc2nnnn2-c2cccc(C3CC3)c2Cl)c(Cl)c1)C(=O)O", "strain or isolate": "WT", "method": "PicoGreen / fluorescence", "read-out": "IC50", "value": "<1 µM"}
{"SMILES": "CCN1c2ncc(CCOc3ccc(C(C)CC(=O)O)c4ccccc34)cc2C(=O)N(C)c2cccnc21", "method": "nucleotide incorporation / radiometric", "read-out": "IC50", "changes": "RT-K103N Y181C", "value": "0.1–1 µM"}
{"SMILES": "Nc1nc2c(ncn2[C@H]2CC[C@@H](COP(=O)(O)OP(=O)(O)OP(=O)(O)O)O2)c(=O)[nH]1", "method": "nucleotide incorporation / radiometric", "read-out": "Ki", "changes": "RT-A62V V75I F77L F116Y Q151M", "value": "0.052 µM"}